Measured values reported in ChEMBL document CHEMBL1649477, “Trypanothione reductase high-throughput screening campaign identifies novel classes of inhibitors with antiparasitic activity” (Antimicrob Agents Chemother, 2009).

The chains behind the UniProt entries cited, without tags or fusion partners.
UniProt P28593, whole entry: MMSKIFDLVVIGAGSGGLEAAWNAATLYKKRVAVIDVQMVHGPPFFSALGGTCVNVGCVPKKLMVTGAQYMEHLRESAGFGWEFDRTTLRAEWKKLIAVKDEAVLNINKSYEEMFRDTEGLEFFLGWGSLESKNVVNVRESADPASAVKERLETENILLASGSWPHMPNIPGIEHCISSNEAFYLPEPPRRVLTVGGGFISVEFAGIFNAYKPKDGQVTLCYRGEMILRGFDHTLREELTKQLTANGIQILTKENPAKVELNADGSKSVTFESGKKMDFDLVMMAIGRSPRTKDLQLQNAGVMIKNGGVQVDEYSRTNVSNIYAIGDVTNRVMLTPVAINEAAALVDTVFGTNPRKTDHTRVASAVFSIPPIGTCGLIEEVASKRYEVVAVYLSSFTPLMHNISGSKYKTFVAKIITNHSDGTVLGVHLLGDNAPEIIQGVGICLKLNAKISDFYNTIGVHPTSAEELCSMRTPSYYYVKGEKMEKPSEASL

Assays:
Leishmania donovani = assay: Antiprotozoal activity against Leishmania donovani MHOM/ET/67/L82 amastigotes; format: functional, organism-based
Plasmodium falciparum = assay: Antiplasmodial activity against Plasmodium falciparum 3D7 erythrocytic stage; format: functional, organism-based
Trypanothione reductase = Trypanothione reductase (Trypanosoma cruzi, UniProt P28593); assay: Inhibition of Trypanosoma cruzi X10/1 trypanothione reductase assessed as inhibition of thionitrobenzoate formation by microplate reader analysis
Trypanosoma cruzi = assay: Antiprotozoal activity against Trypanosoma cruzi Tulahuen C2C4 amastigotes; format: functional, organism-based
[1] = system: Trypanosoma brucei rhodesiense; assay: Antitrypanosomal activity against Trypanosoma brucei rhodesiense STIB900 bloodstream forms

CC(=O)OC1(C#N)CN2CCC1CC2 (stereo not given)
IC50 (Leishmania donovani): > 30 µM | IC50 (Plasmodium falciparum): 3 µM | IC50 (Trypanothione reductase): 52 µM | IC50 (Trypanosoma cruzi): 19 µM | IC50 [1]: 0.9 µM
